# Test system: rat hepatic microsomal PTPases
# Assay: Inhibition of tri-phosphorylated insulin receptor dodecaphosphopeptide dephosphorylation by rat hepatic PTPases
# Details: PTPase activity, compound at 50 μM, rat liver microsomes
structure (smiles),measurement,value
O=[As]c1ccccc1 (stereo not shown),% Change from Control,-57%

# Source: patent US6110963A, “Aryl-oxo-acetic acids useful in the treatment of insulin resistance and hyperglycemia” (American Home Products Corporation, priority 1999, dated 2000)
